What all share (assay type): biochemical
Assay [1] deals with T1, Ser83Ile mutant S. Typhimurium DNA gyrase (Salmonella typhimurium, UniProt P0A2I3+P37411, S83I).
T1 construct: made in house; host or cells: Escherichia coli BL21(DE3)
The assay is described as follows: Fluoroquinolone-inhibited DNA supercoiling assay, GyrA Ser83Ile DNA gyrase. As to conditions: read-out: IC50s ± SD, Ser83Ile (converted). The text has this: (§1) Recombinant DNA gyrase was obtained as separate subunits, GyrA and GyrB. In total, plasmids encoding nine subunits including WT GyrA and GyrB as well as seven GyrA with amino acid substitutions (Ser83Phe, Ser83Ile, Ser83Tyr, Asp87Gly, Asp87Asn, Asp87Tyr, and […]) in the quinolone resistance determining region were constructed as described in our previous study ([38]). These plasmids were introduced into Escherichia coli BL21(DE3) (Merck KGaA, Darmstadt, Germany), and protein expression was induced in the bacterial cells. A transformed E. coli was inoculated into Luria-Bertani broth supplemented with ampicillin (50 mg/L) and incubated at 37°C until the optical density value reached 0.60. Expression of GyrA and GyrB was induced by adding 1 mM isopropyl beta-D-1-thiogalactopyranoside (Wako Pure Chemical Industries Ltd, Osaka, Japan) followed by incubation at 16°C for 40 h (for GyrA), or 18°C for 13 h (for GyrB). […] The protein purity was assessed by sodium dodecyl sulfate-polyacrylamide gel electrophoresis (SDS-PAGE) (ATTO, Tokyo, Japan) as shown in Fig. 7.
(§2) […]. […] The amount of supercoiled DNA was quantified by its intensity using ImageJ, the digital image processing software (https://imagej.nih.gov/ij/download.html). […]

Sequences of proteins named here, by UniProt entry; tags and fusion partners are left off.
UniProt P37411, whole entry S83I: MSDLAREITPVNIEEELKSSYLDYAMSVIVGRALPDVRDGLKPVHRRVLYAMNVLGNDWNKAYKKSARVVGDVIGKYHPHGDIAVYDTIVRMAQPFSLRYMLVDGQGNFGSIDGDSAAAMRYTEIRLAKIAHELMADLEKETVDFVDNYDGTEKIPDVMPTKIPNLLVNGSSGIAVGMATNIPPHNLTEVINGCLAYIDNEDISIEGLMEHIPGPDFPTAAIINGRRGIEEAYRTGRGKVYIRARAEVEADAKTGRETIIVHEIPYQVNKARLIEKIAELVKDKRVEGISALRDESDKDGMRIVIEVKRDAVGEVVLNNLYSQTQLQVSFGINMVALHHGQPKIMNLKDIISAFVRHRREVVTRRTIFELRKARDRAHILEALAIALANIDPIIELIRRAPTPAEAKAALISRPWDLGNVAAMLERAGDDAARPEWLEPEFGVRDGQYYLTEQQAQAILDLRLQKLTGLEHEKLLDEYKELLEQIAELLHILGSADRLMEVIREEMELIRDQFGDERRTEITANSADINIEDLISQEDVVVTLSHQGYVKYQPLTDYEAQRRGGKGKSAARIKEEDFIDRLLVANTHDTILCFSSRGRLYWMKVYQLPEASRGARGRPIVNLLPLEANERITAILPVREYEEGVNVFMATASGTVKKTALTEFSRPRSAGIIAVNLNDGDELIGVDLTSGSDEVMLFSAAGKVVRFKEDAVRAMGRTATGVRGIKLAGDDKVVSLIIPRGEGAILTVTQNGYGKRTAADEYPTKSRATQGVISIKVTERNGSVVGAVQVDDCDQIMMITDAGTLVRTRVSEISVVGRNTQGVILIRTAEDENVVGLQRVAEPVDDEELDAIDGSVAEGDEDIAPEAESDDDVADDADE
UniProt P37411, whole entry S83F: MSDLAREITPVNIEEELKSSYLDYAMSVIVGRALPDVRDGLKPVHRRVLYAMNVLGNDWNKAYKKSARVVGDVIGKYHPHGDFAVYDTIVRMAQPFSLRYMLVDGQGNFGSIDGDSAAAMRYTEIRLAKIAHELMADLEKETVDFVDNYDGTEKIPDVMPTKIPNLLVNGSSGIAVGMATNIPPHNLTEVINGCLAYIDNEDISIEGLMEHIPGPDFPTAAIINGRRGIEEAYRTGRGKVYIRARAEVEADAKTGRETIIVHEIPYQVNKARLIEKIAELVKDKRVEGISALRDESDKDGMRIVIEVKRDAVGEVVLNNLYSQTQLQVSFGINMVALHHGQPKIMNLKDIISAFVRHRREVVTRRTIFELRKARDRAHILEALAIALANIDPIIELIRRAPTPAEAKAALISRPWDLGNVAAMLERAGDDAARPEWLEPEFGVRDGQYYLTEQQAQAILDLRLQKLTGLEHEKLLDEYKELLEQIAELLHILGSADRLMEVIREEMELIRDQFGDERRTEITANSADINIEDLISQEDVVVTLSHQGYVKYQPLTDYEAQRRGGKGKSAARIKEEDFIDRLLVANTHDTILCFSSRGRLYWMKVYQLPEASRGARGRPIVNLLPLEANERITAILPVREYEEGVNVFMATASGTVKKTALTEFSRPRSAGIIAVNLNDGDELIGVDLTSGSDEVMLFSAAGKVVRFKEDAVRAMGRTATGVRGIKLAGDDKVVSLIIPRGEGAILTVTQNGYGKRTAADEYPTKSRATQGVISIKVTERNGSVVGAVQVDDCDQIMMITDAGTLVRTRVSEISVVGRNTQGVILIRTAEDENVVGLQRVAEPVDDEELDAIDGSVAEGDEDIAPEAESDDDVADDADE
UniProt P37411, whole entry S83Y: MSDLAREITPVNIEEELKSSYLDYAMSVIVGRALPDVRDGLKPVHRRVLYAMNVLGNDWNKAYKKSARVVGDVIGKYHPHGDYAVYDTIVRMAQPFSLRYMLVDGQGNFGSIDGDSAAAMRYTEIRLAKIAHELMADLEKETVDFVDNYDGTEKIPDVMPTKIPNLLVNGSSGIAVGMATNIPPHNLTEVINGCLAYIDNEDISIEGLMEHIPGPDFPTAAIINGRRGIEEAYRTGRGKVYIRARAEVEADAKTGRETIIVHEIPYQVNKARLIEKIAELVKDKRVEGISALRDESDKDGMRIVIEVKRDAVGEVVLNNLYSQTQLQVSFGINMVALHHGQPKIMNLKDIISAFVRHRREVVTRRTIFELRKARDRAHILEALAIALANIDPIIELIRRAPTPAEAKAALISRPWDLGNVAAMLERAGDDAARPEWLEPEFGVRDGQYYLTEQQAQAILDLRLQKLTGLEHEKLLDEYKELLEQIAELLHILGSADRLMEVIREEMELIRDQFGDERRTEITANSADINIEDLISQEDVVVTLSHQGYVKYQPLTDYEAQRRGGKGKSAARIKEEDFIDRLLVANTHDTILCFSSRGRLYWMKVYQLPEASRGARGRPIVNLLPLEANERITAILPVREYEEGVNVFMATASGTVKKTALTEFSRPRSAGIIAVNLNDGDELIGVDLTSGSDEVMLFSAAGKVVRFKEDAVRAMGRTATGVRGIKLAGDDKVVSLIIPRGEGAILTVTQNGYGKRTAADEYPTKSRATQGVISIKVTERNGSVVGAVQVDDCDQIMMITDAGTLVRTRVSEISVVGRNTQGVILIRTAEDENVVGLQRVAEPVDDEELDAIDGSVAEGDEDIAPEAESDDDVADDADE
UniProt P37411, whole entry D87G: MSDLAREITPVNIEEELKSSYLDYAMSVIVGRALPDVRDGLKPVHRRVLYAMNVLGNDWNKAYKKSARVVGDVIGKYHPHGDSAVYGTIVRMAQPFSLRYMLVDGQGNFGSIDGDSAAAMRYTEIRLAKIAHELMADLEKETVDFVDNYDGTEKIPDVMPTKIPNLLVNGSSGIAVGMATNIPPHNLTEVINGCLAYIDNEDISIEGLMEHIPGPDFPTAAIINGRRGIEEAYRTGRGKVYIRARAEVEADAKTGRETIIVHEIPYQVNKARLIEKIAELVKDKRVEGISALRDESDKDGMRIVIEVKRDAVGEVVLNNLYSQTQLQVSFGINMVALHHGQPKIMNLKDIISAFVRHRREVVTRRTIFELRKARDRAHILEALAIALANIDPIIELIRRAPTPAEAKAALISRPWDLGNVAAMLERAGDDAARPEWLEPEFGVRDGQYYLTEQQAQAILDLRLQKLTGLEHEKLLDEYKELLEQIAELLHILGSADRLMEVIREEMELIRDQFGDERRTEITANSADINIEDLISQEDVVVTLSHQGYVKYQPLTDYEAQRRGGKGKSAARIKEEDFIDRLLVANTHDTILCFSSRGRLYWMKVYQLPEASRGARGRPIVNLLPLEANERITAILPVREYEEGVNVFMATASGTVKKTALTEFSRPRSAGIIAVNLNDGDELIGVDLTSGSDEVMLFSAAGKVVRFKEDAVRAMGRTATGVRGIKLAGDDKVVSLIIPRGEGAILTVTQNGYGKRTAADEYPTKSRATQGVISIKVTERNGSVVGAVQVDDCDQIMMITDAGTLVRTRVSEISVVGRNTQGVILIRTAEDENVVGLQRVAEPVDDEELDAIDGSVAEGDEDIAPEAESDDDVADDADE
UniProt P37411, whole entry D87N: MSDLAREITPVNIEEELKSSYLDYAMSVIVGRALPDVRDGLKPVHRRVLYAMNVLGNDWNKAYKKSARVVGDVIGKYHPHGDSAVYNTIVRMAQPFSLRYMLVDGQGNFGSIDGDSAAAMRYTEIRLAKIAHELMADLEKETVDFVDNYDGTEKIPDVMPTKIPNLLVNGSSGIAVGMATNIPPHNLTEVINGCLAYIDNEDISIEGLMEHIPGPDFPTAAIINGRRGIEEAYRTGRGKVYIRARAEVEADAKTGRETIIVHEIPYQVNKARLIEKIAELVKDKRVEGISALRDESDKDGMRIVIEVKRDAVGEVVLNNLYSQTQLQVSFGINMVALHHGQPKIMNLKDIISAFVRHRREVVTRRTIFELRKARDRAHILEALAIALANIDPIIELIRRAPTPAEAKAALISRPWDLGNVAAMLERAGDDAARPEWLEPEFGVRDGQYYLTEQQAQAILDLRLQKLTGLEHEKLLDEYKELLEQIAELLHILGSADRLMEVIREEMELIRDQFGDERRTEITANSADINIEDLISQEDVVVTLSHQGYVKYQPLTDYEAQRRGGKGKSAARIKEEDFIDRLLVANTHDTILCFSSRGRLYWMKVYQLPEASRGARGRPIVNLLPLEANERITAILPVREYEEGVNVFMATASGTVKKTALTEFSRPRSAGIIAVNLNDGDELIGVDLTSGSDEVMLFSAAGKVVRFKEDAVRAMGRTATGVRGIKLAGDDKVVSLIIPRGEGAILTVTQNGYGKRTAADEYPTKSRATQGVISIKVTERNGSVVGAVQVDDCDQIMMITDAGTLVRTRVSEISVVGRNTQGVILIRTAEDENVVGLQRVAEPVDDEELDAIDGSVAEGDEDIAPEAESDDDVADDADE
UniProt P37411, whole entry D87Y: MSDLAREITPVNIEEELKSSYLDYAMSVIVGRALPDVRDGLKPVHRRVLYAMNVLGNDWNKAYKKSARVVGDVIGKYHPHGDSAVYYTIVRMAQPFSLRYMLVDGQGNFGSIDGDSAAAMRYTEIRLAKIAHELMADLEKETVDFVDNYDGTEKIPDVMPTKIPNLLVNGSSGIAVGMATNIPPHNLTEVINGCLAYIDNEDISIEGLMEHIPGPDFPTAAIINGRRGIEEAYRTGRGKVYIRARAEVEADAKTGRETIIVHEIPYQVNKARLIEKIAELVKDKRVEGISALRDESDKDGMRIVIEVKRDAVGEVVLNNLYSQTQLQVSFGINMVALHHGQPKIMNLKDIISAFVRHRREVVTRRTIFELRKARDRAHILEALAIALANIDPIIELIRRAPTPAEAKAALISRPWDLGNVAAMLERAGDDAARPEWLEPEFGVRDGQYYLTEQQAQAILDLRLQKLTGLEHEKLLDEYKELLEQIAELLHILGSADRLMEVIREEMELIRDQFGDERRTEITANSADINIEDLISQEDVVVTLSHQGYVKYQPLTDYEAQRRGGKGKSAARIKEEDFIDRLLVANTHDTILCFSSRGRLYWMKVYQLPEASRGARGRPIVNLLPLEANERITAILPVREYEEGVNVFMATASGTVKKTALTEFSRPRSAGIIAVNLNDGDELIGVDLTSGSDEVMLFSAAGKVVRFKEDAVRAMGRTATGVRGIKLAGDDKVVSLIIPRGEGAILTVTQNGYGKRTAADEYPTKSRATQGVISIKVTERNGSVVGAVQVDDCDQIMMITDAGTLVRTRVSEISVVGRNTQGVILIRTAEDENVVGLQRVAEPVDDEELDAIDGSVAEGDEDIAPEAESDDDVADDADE
UniProt P37411, whole entry S83F/D87N: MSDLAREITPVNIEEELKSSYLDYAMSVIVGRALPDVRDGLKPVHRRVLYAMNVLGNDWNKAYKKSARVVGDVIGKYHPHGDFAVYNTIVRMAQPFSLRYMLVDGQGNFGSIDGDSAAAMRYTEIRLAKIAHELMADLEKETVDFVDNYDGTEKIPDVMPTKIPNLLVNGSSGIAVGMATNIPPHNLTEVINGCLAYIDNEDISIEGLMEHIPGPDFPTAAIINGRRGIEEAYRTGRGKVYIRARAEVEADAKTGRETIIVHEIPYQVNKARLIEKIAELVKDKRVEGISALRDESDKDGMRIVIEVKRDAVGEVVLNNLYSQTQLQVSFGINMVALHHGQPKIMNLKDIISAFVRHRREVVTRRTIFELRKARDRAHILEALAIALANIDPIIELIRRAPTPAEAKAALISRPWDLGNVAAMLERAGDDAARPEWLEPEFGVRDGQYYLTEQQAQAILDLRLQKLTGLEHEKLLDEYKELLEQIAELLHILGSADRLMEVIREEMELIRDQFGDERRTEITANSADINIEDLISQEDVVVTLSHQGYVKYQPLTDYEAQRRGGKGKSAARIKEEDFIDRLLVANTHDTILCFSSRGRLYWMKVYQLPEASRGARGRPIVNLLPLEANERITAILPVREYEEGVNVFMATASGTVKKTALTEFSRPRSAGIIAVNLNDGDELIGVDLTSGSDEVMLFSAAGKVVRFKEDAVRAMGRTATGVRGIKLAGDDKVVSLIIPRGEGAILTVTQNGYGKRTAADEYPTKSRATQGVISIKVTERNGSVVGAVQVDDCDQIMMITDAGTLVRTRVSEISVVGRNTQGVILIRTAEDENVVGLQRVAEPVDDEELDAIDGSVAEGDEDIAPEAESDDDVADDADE

Assay [2] deals with T2, Ser83Phe mutant S. Typhimurium DNA gyrase (Salmonella typhimurium, UniProt P0A2I3+P37411, S83F).
T2 construct: made in house; host or cells: Escherichia coli BL21(DE3)
The assay is described as follows: Fluoroquinolone-inhibited DNA supercoiling assay, GyrA Ser83Phe DNA gyrase. The note with it: read-out: IC50s ± SD, Ser83Phe (converted).
From the text: as §1, §2

Assay [3] concerns the target T3, Ser83Tyr mutant S. Typhimurium DNA gyrase (Salmonella typhimurium, UniProt P0A2I3+P37411, S83Y).
T3 construct: made in house; host or cells: Escherichia coli BL21(DE3)
The assay is described as follows: Fluoroquinolone-inhibited DNA supercoiling assay, GyrA Ser83Tyr DNA gyrase. As to conditions: read-out: IC50s ± SD, Ser83Tyr (converted).
From the text: as §1, §2

In assay [4] the target is T4, Asp87Gly mutant S. Typhimurium DNA gyrase (Salmonella typhimurium, UniProt P0A2I3+P37411, D87G).
T4 construct: made in house; host or cells: Escherichia coli BL21(DE3)
The assay is described as follows: Fluoroquinolone-inhibited DNA supercoiling assay, GyrA Asp87Gly DNA gyrase.
From the text: as §1, §2

The target in assay [5] is T5, Asp87Asn mutant S. Typhimurium DNA gyrase (Salmonella typhimurium, UniProt P0A2I3+P37411, D87N).
T5 construct: made in house; host or cells: Escherichia coli BL21(DE3)
The assay is described as follows: Fluoroquinolone-inhibited DNA supercoiling assay, GyrA Asp87Asn DNA gyrase. As to conditions: read-out: IC50s ± SD, Ap87Asn (converted).
From the text: as §1, §2

For assay [6], the target named is T6, Asp87Tyr mutant S. Typhimurium DNA gyrase (Salmonella typhimurium, UniProt P0A2I3+P37411, D87Y).
T6 construct: made in house; host or cells: Escherichia coli BL21(DE3)
The assay is described as follows: Fluoroquinolone-inhibited DNA supercoiling assay, GyrA Asp87Tyr DNA gyrase.
From the text: as §1, §2

In assay [7] the target is T7, Ser83Phe-Asp87Asn double-mutant S. Typhimurium DNA gyrase (Salmonella typhimurium, UniProt P0A2I3+P37411, D87N/S83F).
T7 construct: made in house; host or cells: Escherichia coli BL21(DE3)
Nature of the assay: Fluoroquinolone-inhibited DNA supercoiling assay, GyrA Ser83Phe-Asp87Asn DNA gyrase. As to conditions: read-out: IC50s ± SD, Ser83Phe-Asp87Asn (converted).
From the text: as §1, §2

These results are taken from PMC10715191, “Exploration of the novel fluoroquinolones with high inhibitory effect against quinolone-resistant DNA gyrase of Salmonella Typhimurium” (Microbiology Spectrum, 2023).

As for `O=C(O)c1cn(C2CC2)c2cc(N3CCNCC3)c(F)cc2c1=O` [Ciprofloxacin], the IC50 is 16.6 µM in assay [1]; 1.38 µM in assay [2]; 3.68 µM in assay [3]; 1.9 µM in assay [4]; 5.05 µM in assay [5]; 2.02 µM in assay [6]. Besides, in assay [7], the IC50 was 1580 µM.
